System: green pea aphid (Myzus persicae)
Experiment: Aphid mortality on leaf discs, Potters tower, K4B3 extract versus beauvericin
Assay type: in vivo
Conditions: 2 mL sprayed; 48 hours; beauvericin 50 μg/mL
Description: Table 7 below presents mortality observed amongst green pea aphid (Myzus persicae) present on Asian brassica leaf discs. Asian brassica leaf discs were placed on 1% water agar in Petri dishes. 2 mL of K4B3 extract, beauvericin solution (50 μg/mL, supplemented with 2.5 mL millennium oil/L), and a water control was sprayed using the Potters tower. The sprayed Petri dishes were placed dorsal side down on paper towels to allow surfaces to dry. Five replicates of each treatment were done. Mortality was assessed 48 hours after application.

beauvericin
% Mortality Adult: 5% | % Mortality Juv.: 7%

— patent publication US20150050244A1, “Entomopathogenic Fungi and Uses Thereof” (priority 2008, published 2015)
